Reference: ChEMBL document CHEMBL4376895, “Structure and Activity Studies of Disulfide-Deficient Analogues of αO-Conotoxin GeXIVA” (J Med Chem, 2020)

Legend:
[1] = Antagonist activity at mouse alpha1beta1epsilondelta nAChR expressed in Xenopus laevis oocytes assessed as inhibition of Ach-induced response at -70 mV holding potential by two electrode voltage-clamp assay
[2] = Antagonist activity at rat alpha6alpha3beta4 nAChR expressed in Xenopus laevis oocytes assessed as inhibition of Ach-induced response at -70 mV holding potential by two electrode voltage-clamp assay
[3] = Inhibition of Nav1.2/Nav1.4 (unknown origin) expressed in Xenopus laevis oocytes at -80 mV holding potential by two electrode voltage-clamp assay

For `CC[C@H](C)[C@H](NC(=O)[C@H](CCCNC(=N)N)NC(=O)[C@H](CCCNC(=N)N)NC(=O)[C@H](C)NC(=O)[C@H](Cc1ccc(O)cc1)NC(=O)[C@H](CCCNC(=N)N)NC(=O)[C@H](CCCNC(=N)N)NC(=O)[C@H](CCCNC(=N)N)NC(=O)[C@H](CCCNC(=N)N)NC(=O)[C@H](CC(=O)O)NC(=O)[C@H](Cc1ccc(O)cc1)NC(=O)[C@@H]1CCCN1C(=O)[C@H](CO)NC(=O)[C@H](CCCNC(=N)N)NC(=O)[C@H](C)NC(=O)[C@H](Cc1ccc(O)cc1)NC(=O)[C@H](CCCNC(=N)N)NC(=O)CNC(=O)[C@H](CO)NC(=O)[C@H](CO)NC(=O)[C@H](CCCNC(=N)N)NC(=O)[C@H](C)NC(=O)[C@@H](N)[C@@H](C)O)C(=O)N[C@H](C(=O)N[C@@H](CC(=O)O)C(=O)N[C@@H](C)C(=O)N[C@@H](C)C(=O)N[C@H](C(=O)O)C(C)C)[C@@H](C)O`, the IC50 [1] was 2030 nM and the IC50 [2] was > 10000 nM.

`CC[C@H](C)[C@H](NC(=O)[C@H](CCCNC(=N)N)NC(=O)[C@H](CCCNC(=N)N)NC(=O)[C@@H]1CSSC[C@H](NC(=O)[C@H](Cc2ccc(O)cc2)NC(=O)[C@H](CCCNC(=N)N)NC(=O)CNC(=O)[C@H](CO)NC(=O)[C@H](CO)NC(=O)[C@H](CCCNC(=N)N)NC(=O)[C@H](C)NC(=O)[C@@H](N)[C@@H](C)O)C(=O)N[C@@H](CCCNC(=N)N)C(=O)N[C@@H](CO)C(=O)N2CCC[C@H]2C(=O)N[C@@H](Cc2ccc(O)cc2)C(=O)N[C@@H](CC(=O)O)C(=O)N[C@@H](CCCNC(=N)N)C(=O)N[C@@H](CCCNC(=N)N)C(=O)N[C@@H](CCCNC(=N)N)C(=O)N[C@@H](CCCNC(=N)N)C(=O)N[C@@H](Cc2ccc(O)cc2)C(=O)N1)C(=O)N[C@H](C(=O)N[C@@H](CC(=O)O)C(=O)N[C@@H](C)C(=O)N[C@@H](C)C(=O)N[C@H](C(=O)O)C(C)C)[C@@H](C)O` gave an IC50 [1] of 1970 nM and an IC50 [2] of 6190 nM.

Work on `CC[C@H](C)[C@H](NC(=O)[C@H](CCCNC(=N)N)NC(=O)[C@H](CCCNC(=N)N)NC(=O)[C@H](CO)NC(=O)[C@H](Cc1ccc(O)cc1)NC(=O)[C@H](CCCNC(=N)N)NC(=O)[C@H](CCCNC(=N)N)NC(=O)[C@H](CCCNC(=N)N)NC(=O)[C@H](CCCNC(=N)N)NC(=O)[C@H](CC(=O)O)NC(=O)[C@H](Cc1ccc(O)cc1)NC(=O)[C@@H]1CCCN1C(=O)[C@H](CO)NC(=O)[C@H](CCCNC(=N)N)NC(=O)[C@H](CO)NC(=O)[C@H](Cc1ccc(O)cc1)NC(=O)[C@H](CCCNC(=N)N)NC(=O)CNC(=O)[C@H](CO)NC(=O)[C@H](CO)NC(=O)[C@H](CCCNC(=N)N)NC(=O)[C@H](CO)NC(=O)[C@@H](N)[C@@H](C)O)C(=O)N[C@H](C(=O)N[C@@H](CC(=O)O)C(=O)N[C@@H](C)C(=O)N[C@@H](CO)C(=O)N[C@H](C(=O)O)C(C)C)[C@@H](C)O` yielded an IC50 [1] of 2730 nM and an IC50 [2] of 7340 nM.

With `CC[C@H](C)[C@@H]1NC(=O)[C@H](CCCNC(=N)N)NC(=O)[C@H](CCCNC(=N)N)NC(=O)[C@H](CO)NC(=O)[C@H](Cc2ccc(O)cc2)NC(=O)[C@H](CCCNC(=N)N)NC(=O)[C@H](CCCNC(=N)N)NC(=O)[C@H](CCCNC(=N)N)NC(=O)[C@H](CCCNC(=N)N)NC(=O)[C@H](CC(=O)O)NC(=O)[C@H](Cc2ccc(O)cc2)NC(=O)[C@@H]2CCCN2C(=O)[C@H](CO)NC(=O)[C@H](CCCNC(=N)N)NC(=O)[C@H](CO)NC(=O)[C@H](Cc2ccc(O)cc2)NC(=O)[C@H](CCCNC(=N)N)NC(=O)CNC(=O)[C@H](CO)NC(=O)[C@H](CO)NC(=O)[C@H](CCCNC(=N)N)NC(=O)[C@@H](NC(=O)[C@@H](N)[C@@H](C)O)CSSC[C@@H](C(=O)N[C@H](C(=O)O)C(C)C)NC(=O)[C@H](C)NC(=O)[C@H](CC(=O)O)NC(=O)[C@H]([C@@H](C)O)NC1=O` the IC50 [1] was 2990 nM and the IC50 [2] was 2100 nM.

Work on `CC[C@H](C)[C@H](NC(=O)[C@H](CCCNC(=N)N)NC(=O)[C@H](CCCNC(=N)N)NC(=O)[C@H](C)NC(=O)[C@H](Cc1ccc(O)cc1)NC(=O)[C@H](CCCNC(=N)N)NC(=O)[C@H](CCCNC(=N)N)NC(=O)[C@H](CCCNC(=N)N)NC(=O)[C@H](CCCNC(=N)N)NC(=O)[C@H](CC(=O)O)NC(=O)[C@H](Cc1ccc(O)cc1)NC(=O)[C@@H]1CCCN1C(=O)[C@H](CO)NC(=O)[C@H](CCCNC(=N)N)NC(=O)[C@@H]1CSSC[C@H](NC(=O)[C@@H](N)[C@@H](C)O)C(=O)N[C@@H](CCCNC(=N)N)C(=O)N[C@@H](CO)C(=O)N[C@@H](CO)C(=O)NCC(=O)N[C@@H](CCCNC(=N)N)C(=O)N[C@@H](Cc2ccc(O)cc2)C(=O)N1)C(=O)N[C@H](C(=O)N[C@@H](CC(=O)O)C(=O)N[C@@H](C)C(=O)N[C@@H](C)C(=O)N[C@H](C(=O)O)C(C)C)[C@@H](C)O` yielded an IC50 [1] of 2490 nM and an IC50 [2] of 8680 nM.

With `CC[C@H](C)[C@H](NC(=O)[C@H](CCCNC(=N)N)NC(=O)[C@H](CCCNC(=N)N)NC(=O)[C@H](CO)NC(=O)[C@H](Cc1ccc(O)cc1)NC(=O)[C@H](CCCNC(=N)N)NC(=O)[C@H](CCCNC(=N)N)NC(=O)[C@H](CCCNC(=N)N)NC(=O)[C@H](CCCNC(=N)N)NC(=O)[C@H](CC(=O)O)NC(=O)[C@H](Cc1ccc(O)cc1)NC(=O)[C@@H]1CCCN1C(=O)[C@H](CO)NC(=O)[C@H](CCCNC(=N)N)NC(=O)[C@H](C)NC(=O)[C@H](Cc1ccc(O)cc1)NC(=O)[C@H](CCCNC(=N)N)NC(=O)CNC(=O)[C@H](CO)NC(=O)[C@H](CO)NC(=O)[C@H](CCCNC(=N)N)NC(=O)[C@H](C)NC(=O)[C@@H](N)[C@@H](C)O)C(=O)N[C@H](C(=O)N[C@@H](CC(=O)O)C(=O)N[C@@H](C)C(=O)N[C@@H](CO)C(=O)N[C@H](C(=O)O)C(C)C)[C@@H](C)O` the IC50 [1] was 2690 nM and the IC50 [2] was > 10000 nM.

With `C[C@H](N)C(=O)N[C@H]1CSSC[C@@H]2NC(=O)[C@H](CCCNC(=N)N)NC(=O)[C@H](CO)NC(=O)[C@H](Cc3cnc[nH]3)NC(=O)[C@H](CC(=O)O)NC(=O)[C@H](CCCNC(=N)N)NC(=O)[C@H](C)NC(=O)[C@H](Cc3c[nH]c4ccccc34)NC(=O)[C@H](CCCCN)NC(=O)[C@H](CO)NC(=O)[C@H](CO)NC(=O)[C@H](CSSC[C@@H](C(N)=O)NC2=O)NC(=O)[C@H](CC(N)=O)NC1=O` the IC50 [3] was 8240 nM.

`N=C(N)NCCC[C@@H]1NC(=O)[C@H](CO)NC(=O)[C@H](Cc2cnc[nH]2)NC(=O)[C@H](CC(=O)O)NC(=O)[C@H](CCCNC(=N)N)NC(=O)[C@@H]2CSSC[C@H](N)C(=O)N[C@H]3CSSC[C@H](NC1=O)C(=O)N[C@H](C(N)=O)CSSC[C@H](NC(=O)[C@H](CC(N)=O)NC3=O)C(=O)N[C@@H](CO)C(=O)N[C@@H](CO)C(=O)N[C@@H](CCCCN)C(=O)N[C@@H](Cc1c[nH]c3ccccc13)C(=O)N2` gave an IC50 [3] of 460 nM.

Work on `CC[C@H](C)[C@@H]1NC(=O)[C@H](CCCNC(=N)N)NC(=O)[C@H](CCCNC(=N)N)NC(=O)[C@H](C)NC(=O)[C@H](Cc2ccc(O)cc2)NC(=O)[C@H](CCCNC(=N)N)NC(=O)[C@H](CCCNC(=N)N)NC(=O)[C@H](CCCNC(=N)N)NC(=O)[C@H](CCCNC(=N)N)NC(=O)[C@H](CC(=O)O)NC(=O)[C@H](Cc2ccc(O)cc2)NC(=O)[C@@H]2CCCN2C(=O)[C@H](CO)NC(=O)[C@H](CCCNC(=N)N)NC(=O)[C@H](C)NC(=O)[C@H](Cc2ccc(O)cc2)NC(=O)[C@H](CCCNC(=N)N)NC(=O)CNC(=O)[C@H](CO)NC(=O)[C@H](CO)NC(=O)[C@H](CCCNC(=N)N)NC(=O)[C@@H](NC(=O)[C@@H](N)[C@@H](C)O)CSSC[C@@H](C(=O)N[C@H](C(=O)O)C(C)C)NC(=O)[C@H](C)NC(=O)[C@H](CC(=O)O)NC(=O)[C@H]([C@@H](C)O)NC1=O` yielded an IC50 [1] of 700 nM and an IC50 [2] of 3780 nM.

Work on `C[C@@H]1NC(=O)[C@H](CCCNC(=N)N)NC(=O)[C@H](CO)NC(=O)[C@H](Cc2cnc[nH]2)NC(=O)[C@H](CC(=O)O)NC(=O)[C@H](CCCNC(=N)N)NC(=O)[C@@H]2CSSC[C@H](N)C(=O)N[C@@H](C)C(=O)N[C@@H](CC(N)=O)C(=O)N[C@@H](CSSC[C@@H](C(N)=O)NC1=O)C(=O)N[C@@H](CO)C(=O)N[C@@H](CO)C(=O)N[C@@H](CCCCN)C(=O)N[C@@H](Cc1c[nH]c3ccccc13)C(=O)N2` yielded an IC50 [3] of 17400 nM.

With `CC[C@H](C)[C@H](NC(=O)[C@H](CCCNC(=N)N)NC(=O)[C@H](CCCNC(=N)N)NC(=O)[C@H](C)NC(=O)[C@H](Cc1ccc(O)cc1)NC(=O)[C@H](CCCNC(=N)N)NC(=O)[C@H](CCCNC(=N)N)NC(=O)[C@H](CCCNC(=N)N)NC(=O)[C@H](CCCNC(=N)N)NC(=O)[C@H](CC(=O)O)NC(=O)[C@H](Cc1ccc(O)cc1)NC(=O)[C@@H]1CCCN1C(=O)[C@H](CO)NC(=O)[C@H](CCCNC(=N)N)NC(=O)[C@H](CO)NC(=O)[C@H](Cc1ccc(O)cc1)NC(=O)[C@H](CCCNC(=N)N)NC(=O)CNC(=O)[C@H](CO)NC(=O)[C@H](CO)NC(=O)[C@H](CCCNC(=N)N)NC(=O)[C@H](CO)NC(=O)[C@@H](N)[C@@H](C)O)C(=O)N[C@H](C(=O)N[C@@H](CC(=O)O)C(=O)N[C@@H](C)C(=O)N[C@@H](C)C(=O)N[C@H](C(=O)O)C(C)C)[C@@H](C)O` the IC50 [1] was 2370 nM and the IC50 [2] was > 10000 nM.
